kcat data for one compound are collected here from US20100284992A1 (priority 2006, published 2010).

The target in this assay is Pseudomonas aeruginosa hemolytic phospholipase C PlcHR2 variant T178A (Thr178Ala) (Pseudomonas aeruginosa, UniProt P06200, T178A). The assay can be described thus: ρ-Nitrophenyl-Phosphorylcholine (NPPC) enzymatic assay, T178A PlcHR2 mutant. Conditions: substrate NPPC; calculated using a Mr of 96,000 Da for PlcHR2; pH 7.2, 37° C.

As to `C[N+](C)(C)CCOP(=O)([O-])Oc1ccc([N+](=O)[O-])cc1` [NPPC, ρ-nitrophenyl-phosphorylcholine], the kcat was 6 s⁻¹.
